The source of these data is PubChem BioAssay (NCI).

The entries are a selection whose mix differs from that of the whole data set.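 Activity criterion: percent growth below 10, measured after cells in 96-well plates were exposed to a single compound concentration for 48 hours.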 Calls of active or inactive are those of the source.

In this experiment the test system is MDA-MB-468 breast. Briefly: NCI-60 one-dose screen, 48 h (100 = growth as untreated, 0 = no growth, -100 = all killed). To be noted: 10 µM.

In the case of `O=C(O)Cc1ccc(N(CCCl)CCCl)cc1`, the growth was inactive: 105%.
